Reference: PubChem BioAssay AID504761 (Drosophila RNAi Screening Center, 2011)

Screen: 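Fly genes whose silencing reduces dengue virus type 2 infection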 (primary screen)
Cells: D.Mel-2 cells from Drosophila
Reagents: long dsRNA against Drosophila genes
Challenge: infection with dengue virus type 2; dose and infection time not stated
Measurement: 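Per well on two replicate plates, imaging gave the percent of cells positive for viral envelope protein, ranked by infection, and a nuclear count of cells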
Reading the numbers: infection score: higher = more virus-infected cells; cell count: higher = more cells in the well
Hit rule: 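Low infection ranks in the two replicates (chance level up to 0.065) followed by a retest with a 1.5-fold or larger significant decrease, p below 0.05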
Calls: active = confirmed: knock-down lowers infection; inactive = not picked or not confirmed
In all, the deposit lists about 22,000 reagents; this is an unselected part of those with a known target gene and a result. Over the whole deposit, 116 (0.52%) were called active. 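Calls depend on retest data that are not deposited; infection was ranked per plate without normalising between plates; the unit of the infection score is not given.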 Raw values are not corrected between plates. A number with no mark means an inactive call. No sequences are given here. The record does not give: the amount of reagent, the time to read-out.

gene	amplicon	infection score, replicate 1	infection score, replicate 2	cell count, replicate 1	cell count, replicate 2
CG31465	DRSC16090	1.85	4.26	6116	6486
CG31465	DRSC26353	8.2	5.79	5232	6634
CG3650	DRSC04401	12.6	13.6	5268	6521
CG3650	DRSC28976	5.38	17.3	5163	5940
CG4835	DRSC10452	19.4	36	5240	3761
CG4835	DRSC23696	9.2	8.4	5652	5382
aust (australin)	DRSC02558	4.73	4.76	6151	6512
aust (australin)	DRSC26019	7.2	2.72	6518	6313
Ilk (Integrin linked kinase)	DRSC11868	2.25	3.68	6759	6662
sol (small optic lobes)	DRSC20587	7.56	1.2	5844	6169
sol (small optic lobes)	DRSC26252	11.7	6.55	4874	5691
alph (alphabet)	DRSC15398	5.65	7.19	5614	6245
alph (alphabet)	DRSC28570			378	410
alpha-Est3 (alpha-Esterase-3)	DRSC12615	2.78	3.49	6432	6533
CG43163	DRSC10745	3.03	2.65	6399	6642
CG43163	DRSC10748	3.88	3.98	6111	6123
CG43163	DRSC23670	7.24	8.25	6560	5659
udd (under-developed)	DRSC06720	0.99	5.38	6533	6783
CG5966	DRSC18394	6.31	1.31	6022	6257
Ect3 (Ectoderm-expressed 3)	DRSC15462	5.62	4.62	6693	6608
Ect3 (Ectoderm-expressed 3)	DRSC25392	4.04	3.12	6753	7016
CG4297	DRSC00651	10.2	13.1	6411	6585
CG13837	DRSC14687	4.67	2.68	6747	6932
CG31122	DRSC16286	8.26	3.33	6449	6857
CG31122	DRSC23448	3.3	3.77	6457	6529
CG7650	DRSC10898	0.84	1.35	5816	6465
CG7650	DRSC29711	5.53	2.4	5899	5826
Mettl14 (Methyltransferase like 14)	DRSC03073	1.33	4.02	6600	5742
in (inturned)	DRSC11888	1.4	3.79	5851	5778
term (terminus)	DRSC21730	29.1	8.65	5484	5964
Ucp4B (Uncoupling protein 4B)	DRSC02665	0.39	11.7	1023	6173
Rsph9 (Radial spoke head protein 9)	DRSC01594	2.12	1.2	6189	6104
Rsph9 (Radial spoke head protein 9)	DRSC25908	5.84	10	5980	5915

Next part, starting with the last 7 of the part before.
gene	amplicon	infection score, replicate 1	infection score, replicate 2	cell count, replicate 1	cell count, replicate 2
CG7650	DRSC29711	5.53	2.4	5899	5826
Mettl14 (Methyltransferase like 14)	DRSC03073	1.33	4.02	6600	5742
in (inturned)	DRSC11888	1.4	3.79	5851	5778
term (terminus)	DRSC21730	29.1	8.65	5484	5964
Ucp4B (Uncoupling protein 4B)	DRSC02665	0.39	11.7	1023	6173
Rsph9 (Radial spoke head protein 9)	DRSC01594	2.12	1.2	6189	6104
Rsph9 (Radial spoke head protein 9)	DRSC25908	5.84	10	5980	5915
Nlg3 (Neuroligin 3)	DRSC12524	5.07	4.23	6769	6376
Nlg3 (Neuroligin 3)	DRSC12540	6.57	3.82	6367	5993
Nlg3 (Neuroligin 3)	DRSC12574	5.93	3.26	6394	6449
Nlg3 (Neuroligin 3)	DRSC25678	12.5	16.4	6681	6163
fln (flightin)	DRSC11346	2.64	19.6	6750	5136
fln (flightin)	DRSC28670	13.9	1.72	4512	754
Corin	DRSC06818	1.9	1.34	6253	6707
Corin	DRSC28927	16.5	21.8	5724	5165
Uba5 (Ubiquitin-like activating enzyme 5)	DRSC19775	14	4.49	3309	5991
Pxd (Peroxidase)	DRSC16805	5.96	2.3	6510	6595
CG11601	DRSC00318	10.5	1.86	6411	6985
Irk2 (Inwardly rectifying potassium channel 2)	DRSC15569	15.3	21	6802	5722
PolD1 (DNA polymerase delta subunit 1)	DRSC11138	2.69	11	5460	4565
PolD1 (DNA polymerase delta subunit 1)	DRSC28966	5.71	19.3	4533	5615
ds (dachsous)	DRSC00815	2.41	1.87	6225	6137
Hpf1 (Histone PARylation factor 1)	DRSC12202	10.4	7.05	5477	6798
Tmem18 (Transmembrane protein 18)	DRSC27312	14.3	4.2	6259	6594
CG4962	DRSC10464	4.88	13.9	6004	6253
Asap (ArfGAP with SH3 domain, ankyrin repeat and PH domain)	DRSC06493	1.07	18.8	6366	5902
Asap (ArfGAP with SH3 domain, ankyrin repeat and PH domain)	DRSC06830	3.7	11.3	5912	6039
PsGEF (retired record)	DRSC18600	2.71	11.9	6451	5276
Frq2 (Frequenin 2)	DRSC20245	16.6	13.5	5928	6564
Frq2 (Frequenin 2)	DRSC26037	4.76	4.44	6699	6165
CG14488	DRSC06460	15.2	9.5	6605	6539
TwdlJ (TweedleJ)	DRSC15812		8.4	378	1868
